Some of the results follow. Results with a measured potency or affinity are listed apart. Some salts or complexes appear as unconnected parts, following the source record. Activity calls are given as the source filed them. No rule for the calls is given here.

The nature of this experiment: West Nile virus antiviral activity, cell-based, CPE readout (AID 1621). As to conditions: West Nile virus-infected cells, at 10 µM, stronger effect = higher value.
On to `Cc1cc(C)cc(OP(C)(=O)Nc2cccc(C(F)(F)F)c2)c1` (stereo unspecified), for which the CPE inhibition is inactive: -1.58%. In the case of `COc1ccc(OP(C)(=O)Nc2ccccc2Br)cc1` (stereo unspecified) it was inactive: 0.14%; in that of `COc1ccccc1OP(C)(=O)Nc1ccc(C)c(C)c1` (stereo unspecified), inactive: 0.5%. On to `Cc1nc2ccc3ccccc3c2o1.O=[N+]([O-])c1cc([N+](=O)[O-])c(O)c([N+](=O)[O-])c1`, for which the CPE inhibition was inactive: -0.22%. In the case of `CP(=O)(OCCOc1ccccc1)OCCOc1ccccc1` it was inactive: -0.4%. In the case of `CP(=O)(Nc1ccc(Cl)cc1Cl)Oc1ccccc1` (stereo unspecified) it was inactive: -0.19%; in that of `COc1ccccc1OP(C)(=O)Nc1ccc(Br)cc1` (stereo unspecified), inactive: 0.86%; in that of `CN(C)CCOC(=O)C(O)(c1ccccc1)C1CCCC1` (stereo unspecified), inactive: -0.37%. In the case of `COc1ccc(OP(C)(=O)Nc2ccccn2)cc1` (stereo unspecified) it was inactive: -0.29%; in that of `O=[N+]([O-])c1cc([N+](=O)[O-])c(Nc2ccccn2)c([N+](=O)[O-])c1`, inactive: 0.73%. Regarding `Cc1c(NP(C)(=O)Oc2ccc(C(C)C)cc2)c(=O)n(-c2ccccc2)n1C` (stereo unspecified), the CPE inhibition is inactive: -0.65%. In the case of `CCc1ccc(OP(C)(=O)O)cc1` it was inactive: 0.03%. In the case of `CP(=O)(Nc1ccccn1)Oc1ccccc1` (stereo unspecified), the CPE inhibition was inactive: 0.47%. Then `COc1ccccc1OP(C)(=O)Nc1ccc(C)cc1C` (stereo unspecified), with inactive: -0.17%.

With `CCN(CC)CC(O)COC(=O)C(O)(c1ccccc1)C1CCCCC1` (stereo unspecified), the CPE inhibition was inactive: -0.31%. In the case of `COc1ccc(OP(C)(=O)Nc2ccc(Br)cc2)cc1` (stereo unspecified) it was inactive: -0.35%; in that of `CP(=O)(Oc1ccccc1)N1CCOC1=O` (stereo unspecified), inactive: 0.23%. In the case of `CCc1ccc(OP(C)(=O)Nc2cccnc2)cc1` (stereo unspecified), the CPE inhibition was inactive: -0.13%. As for `COc1ccccc1OP(C)(=O)Nc1c(C)n(C)n(-c2ccccc2)c1=O` (stereo unspecified), the CPE inhibition is inactive: -0.09%. In the case of `O=C(OCCCN1CCCC1)C(O)(c1ccccc1)C1CCCCC1` (stereo unspecified) it was inactive: 0.26%; in that of `CP(=O)(Nc1ccc(Cl)cc1)Oc1ccc(F)cc1` (stereo unspecified), inactive: -0.43%; in that of `CC(C)(C)c1ccc(OP(C)(=O)O)cc1`, inactive: -0.5%. Then `COc1ccccc1OP(C)(=O)Nc1ccccc1Br` (stereo unspecified), with inactive: 0.12%; and `CP(=O)(OC12CC3CC(CC(C3)C1)C2)OC12CC3CC(CC(C3)C1)C2`, with inactive: -0.2%. In the case of `CCOC(=O)c1ccc(NP(C)(=O)Oc2ccc(Cl)cc2)cc1` (stereo unspecified) it was inactive: 0.69%; in that of `COc1ccc(OP(C)(=O)Nc2cccc(Br)c2)cc1` (stereo unspecified), inactive: -0.25%. For the compound `COc1ccc(NP(C)(=O)Oc2ccccc2OC)cc1` (stereo unspecified), the CPE inhibition was inactive: 1.08%.

`CN(C)CCOC(=O)C(O)(c1ccccc1)C1CCCCC1` (stereo unspecified): the CPE inhibition is inactive: 0.03%.

Turning to `Cc1cc(-c2cccc3ccccc23)c(C)cn1.O=[N+]([O-])c1cc([N+](=O)[O-])c(O)c([N+](=O)[O-])c1`, the CPE inhibition was inactive: -0.03%.

On to `O=[N+]([O-])c1ccc(OP2(=O)COCCO2)cc1` (stereo unspecified), for which the CPE inhibition is inactive: 0.39%.

As for `CP(=O)(Nc1ccc(SC(F)(F)F)cc1)Oc1ccc(F)cc1` (stereo unspecified), the CPE inhibition is inactive: -0.39%. In the case of `CCOP(C)(=S)SCC(=O)NC(C)(CC)C(=O)O` (stereo unspecified) it was inactive: 0.13%. With `CP(=O)(Nc1ccc2c(c1)OCCO2)Oc1ccccc1` (stereo unspecified), the CPE inhibition is inactive: -0.06%. Then `Cc1ccccc1NP(C)(=O)Nc1ccccc1C`, with inactive: 0.1%; and `CC(C)c1ccc(OP(C)(=O)Nc2ccc(SC(F)(F)F)cc2)cc1` (stereo unspecified), with inactive: -1.92%; and `CP(=O)(Nc1ccccc1F)Oc1ccccc1` (stereo unspecified), with inactive: 0.77%.

Consider `O=C(OCCN1CCN(CCOCc2ccccc2)CC1)C(O)(c1ccccc1)c1ccccc1`, for which the CPE inhibition is inactive: 0.25%. In the case of `O=C(OC1CN2CCC1CC2)c1ccc([N+](=O)[O-])cc1` (stereo unspecified), the CPE inhibition is inactive: 0.42%. For the compound `COc1ccc2c(c1O)-c1c(O)c(OC)cc3c1[C@H](C2)[N+](C)(C)CC3.O=[N+]([O-])c1cc([N+](=O)[O-])c([O-])c([N+](=O)[O-])c1[O-]`, the CPE inhibition was inactive: 0.07%.

Consider `COc1ccc(OP(C)(=O)Nc2ccc(SC(F)(F)F)cc2)cc1` (stereo unspecified), for which the CPE inhibition is inactive: -1.29%. Consider `CCOC(=O)c1ccc(NP(C)(=O)Oc2ccc(F)cc2)cc1` (stereo unspecified), for which the CPE inhibition was inactive: -0.24%. Regarding `CCN(CC)CCCOC(=O)C(O)(c1ccccc1)C1CCCCC1` (stereo unspecified), the CPE inhibition is inactive: 0.46%.

For `CCCCCOc1ccc(NP(C)(=O)Oc2ccc(Cl)cc2Cl)cc1` (stereo unspecified), the CPE inhibition was inactive: -0.03%. In the case of `O=[N+]([O-])c1cc([N+](=O)[O-])c(OC2CCCCC2O)c([N+](=O)[O-])c1` (stereo unspecified), the CPE inhibition is inactive: -0.33%.

Consider `CP(=O)(Nc1ccccc1)Oc1ccc(F)cc1` (stereo unspecified), for which the CPE inhibition is inactive: -0.1%.

Take `O=C(O)c1cccc(Nc2c([N+](=O)[O-])cc([N+](=O)[O-])cc2[N+](=O)[O-])c1`: the CPE inhibition is inactive: 0.39%. Then `CC1=NCCc2c1[nH]c1ccccc21.O=[N+]([O-])c1cc([N+](=O)[O-])c(O)c([N+](=O)[O-])c1`, with inactive: -0.52%.

Take `COc1ccccc1OP(C)(=O)Nc1cccc(Br)c1` (stereo unspecified): the CPE inhibition was inactive: 0.56%.

For the compound `Cc1cc(C)cc(OP(C)(=O)Nc2ccc(C)cc2C)c1` (stereo unspecified), the CPE inhibition is inactive: -0.47%. As for `CCOC(=O)c1ccc(NP(C)(=O)Oc2cc(C)cc(C)c2)cc1` (stereo unspecified), the CPE inhibition was inactive: -0.3%. In the case of `CP(=O)(Nc1cccc(Br)c1)Oc1ccccc1` (stereo unspecified) it was inactive: -0.51%; in that of `Cc1cc(C)cc(OP(C)(=O)Nc2ccccn2)c1` (stereo unspecified), inactive: -0.17%; in that of `Cc1ccc(C)c(NP(C)(=O)Oc2ccccc2)c1` (stereo unspecified), inactive: 0.55%. Then `O=[N+]([O-])c1cc([N+](=O)[O-])c(-n2nnc3ccccc32)c([N+](=O)[O-])c1`, with inactive: 0.56%; and `Cc1nc2ccc3ccccc3c2s1.O=[N+]([O-])c1cc([N+](=O)[O-])c(O)c([N+](=O)[O-])c1`, with inactive: 0.38%; and `O=[N+]([O-])c1cc([N+](=O)[O-])c(Nc2nnnn2CCO)c([N+](=O)[O-])c1`, with inactive: 0.07%. `CCOC(=O)C(CC)C1=NC(C)(C)Cc2ccccc21.O=[N+]([O-])c1cc([N+](=O)[O-])c(O)c([N+](=O)[O-])c1` (stereo unspecified): the CPE inhibition is inactive: -0.04%. For `CN1CCCCC1COC(=O)C1(O)c2ccccc2CCc2ccccc21` (stereo unspecified), the CPE inhibition was inactive: -0.45%. In the case of `COc1ccccc1OP(C)(=O)Nc1c(C)cccc1C` (stereo unspecified) it was inactive: 0.26%. Then `CP(=O)(Nc1ccc(SC(F)(F)F)cc1)Oc1ccccc1` (stereo unspecified), with inactive: -1.69%.

In the case of `CCCOc1ccc(NP(C)(=O)Oc2ccc(Cl)cc2)cc1` (stereo unspecified), the CPE inhibition was inactive: -0.87%. In the case of `CP(=S)(Nn1cnnc1)Oc1ccccc1` (stereo unspecified) it was inactive: 0.06%; in that of `COc1ccccc1OP(C)(=O)Nc1ccccc1` (stereo unspecified), inactive: 0.19%. Regarding `CP(=O)(Nc1ccccc1Br)Oc1ccccc1` (stereo unspecified), the CPE inhibition is inactive: -0.34%.

For the compound `CP(=O)(Nc1ccc(SC(F)(F)F)cc1)Oc1ccc(Cl)cc1` (stereo unspecified), the CPE inhibition is inactive: -0.13%.

As for `Cc1cccc(C)c1OP(C)(=O)Nc1ccc(SC(F)(F)F)cc1` (stereo unspecified), the CPE inhibition was inactive: -0.64%. In the case of `CP(=O)(Oc1ccccc1)OC(c1ccccc1)C(F)(F)F` (stereo unspecified) it was inactive: -0.31%. Then `CCc1ccc(OP(C)(=O)N2CCN(c3ccc([N+](=O)[O-])cc3)CC2)cc1` (stereo unspecified), with inactive: -0.65%; and `CP(=O)(NC(=O)Nc1ccccc1)Oc1ccccc1` (stereo unspecified), with inactive: 0.1%.

For `Cc1cc(C)cc(OP(C)(=O)Nc2ccc(SC(F)(F)F)cc2)c1` (stereo unspecified), the CPE inhibition is inactive: -1.72%. Then `CCOP(C)(=S)SCC(=O)NC(C)C(=O)O` (stereo unspecified), with inactive: -0.25%; and `CCOC(=O)c1ccc(NP(C)(=O)Oc2ccc(OC)cc2)cc1` (stereo unspecified), with inactive: -0.5%; and `CP(=O)(Nc1ccccn1)Oc1ccc(Cl)cc1` (stereo unspecified), with inactive: 0.06%. Then `CCN(CC)CCCOC(=O)C(O)(c1ccccc1)c1ccccc1`, with inactive: 0.51%. In the case of `CC(C)(C)c1ccc(OP(C)(=O)Nc2ccc(SC(F)(F)F)cc2)cc1` (stereo unspecified) it was inactive: -0.07%; in that of `Cc1cccc(C)c1OP(C)(N)=O` (stereo unspecified), inactive: 1.21%. Take `O=[N+]([O-])c1ccc2c(c1)C=Nc1ccccc1O2`: the CPE inhibition is inactive: -1.61%. In the case of `CCOC(=O)c1ccc(NP(C)(=O)Oc2ccccc2)cc1` (stereo unspecified) it was inactive: -0.24%. In the case of `COc1ccccc1OP(C)(=O)Nc1ccc(C)cc1` (stereo unspecified) it was inactive: 0.24%. Then `COc1ccccc1OP(C)(=O)Nc1cc(Cl)ccc1C` (stereo unspecified), with inactive: -0.95%; and `Cc1cc(C)cc(OP(C)(N)=O)c1` (stereo unspecified), with inactive: 0.99%.

Source of the values: PubChem BioAssay AID1621 (Southern Research Specialized Biocontainment Screening …, 2009).
